Anti-infective test results gathered from many reports (values: NIAID ChemDB through PubChem).

Shared fields: tests on isolated targets; species: HIV-1; target: Reverse transcriptase; measure: inhibition

Neighbouring rows are from separate reports.

SMILES,strain or isolate,changes,read by,dose,value
Cc1cccc2nc(-c3ccccc3Cl)c(NC3CCCCC3)n12,,,ELISA,50 µM,96.6%
O=C1CSC(c2c(Cl)ncnc2Cl)N1n1cnnc1,,,RT activity / ELISA / absorbance,100 µg/mL,72.15%
O=C1c2c(O)cc(O)cc2O[C@@H](c2ccc(O)cc2)[C@@H]1c1c(O)cc(O)c2c(=O)cc(-c3ccc(O)c(O)c3)oc12,,,RT activity / radiometric,200 µg/mL,100%
CCc1c(Sc2ccccn2)n(COCc2ccccc2)c(=O)[nH]c1=O,,RT-L100I,,50 µM,90%
Clc1ccccc1-c1nc2cccc(Cl)n2c1NC1CCCC1,,,ELISA,50 µM,94.9%
CO[C@H]1/C=C/O[C@@]2(C)Oc3c(C)c(O)c4c(c3C2=O)C(=O)C(SCCCCCCCOC(=O)CCCC(=O)OC[C@H]2O[C@@H](n3cc(C)c(=O)[nH]c3=O)C[C@@H]2N=[N+]=[N-])=C(NC(=O)/C(C)=C\C=C\[C@H](C)[C@H](O)[C@@H](C)[C@@H](O)[C@@H](C)[C@H](OC(C)=O)[C@@H]1C)C4=O,IIIB,,RT activity,300 µM,33%
C/C(=C\C=C\[C@@H](C)[C@H]1CC[C@@]2(C)C3CC[C@H]4C(C)(C)C(=O)CC[C@]4(C)[C@@]3(O)[C@@H](O)C[C@]12C)C(=O)O,,,RT activity / radiometric,200 µg/mL,55.49%
COc1cc(OC)nc(N2C(=O)CSC2c2c(Cl)ncnc2Cl)n1,,,RT activity / ELISA / absorbance,100 µg/mL,61.38%
N#Cc1ccc2nc(-c3ccccc3Cl)c(NC3CCCCC3)n2c1,,,ELISA,50 µM,88.2%
C[C@H]1[C@H](O)C(=O)CC2[C@]3(C)CC[C@@]4(C)C5CC(C)(C)CC[C@]5(C)CC[C@]4(C)C3CC[C@@]21C,,,RT activity / radiometric,200 µg/mL,11.35%
Clc1ccccc1-c1nc2ccccn2c1NC1CCCC1,,,ELISA,50 µM,81.9%
O=C1CSC(c2c(Br)cncc2Br)N1n1cnnc1,,,RT activity / ELISA / absorbance,10 µg/mL,4.55%
CO[C@H]1/C=C/O[C@@]2(C)Oc3c(C)c(O)c4c(c3C2=O)C(=O)C(SCCOC(=O)CCCC(=O)OC[C@@H]2O[C@H](n3cc(C)c(=O)[nH]c3=O)C[C@H]2N=[N+]=[N-])=C(NC(=O)/C(C)=C\C=C\[C@H](C)[C@H](O)[C@@H](C)[C@@H](O)[C@@H](C)[C@H](OC(C)=O)[C@@H]1C)C4=O,IIIB,,RT activity,300 µM,38%
O=C1CSC(c2c(F)cccc2Cl)N1n1cnnc1,,,RT activity / ELISA / absorbance,10 µg/mL,19.2%
CO[C@H]1/C=C/O[C@@]2(C)Oc3c(C)c(O)c4c(c3C2=O)C(=O)C(SCCOC(=O)CCC(=O)OC[C@H]2O[C@@H](n3cc(C)c(=O)[nH]c3=O)C[C@@H]2N=[N+]=[N-])=C(NC(=O)/C(C)=C\C=C\[C@H](C)[C@H](O)[C@@H](C)[C@@H](O)[C@@H](C)[C@H](OC(C)=O)[C@@H]1C)C4=O,IIIB,,RT activity,300 µM,61%
COc1cc(O)cc2oc3cc(O)c(O)cc3c(=O)c12,,,RT activity / radiometric,200 µg/mL,29.94%
C/C=C/c1ccc2c(c1)[C@H](C)[C@@H](c1ccc(O)cc1)O2,,,RT activity / radiometric,200 µg/mL,73.2%
CC(=O)O[C@@H](/C=C(\C)C(=O)O)C[C@@H](C)[C@H]1CC[C@@]2(C)C3CC[C@H]4C(C)(C)C(=O)CC[C@]4(C)C3=CC[C@]12C,,,RT activity / radiometric,200 µg/mL,94.45%
COc1cc2c(cc1OC)C1Cc3ccc4c(c3CN1CC2)OCO4,,,RT activity / radiometric,200 µg/mL,33%
O=C1CSC(c2c(Cl)cccc2Cl)N1n1cnnc1,,,RT activity / ELISA / absorbance,10 µg/mL,16.72%
C/C=C/c1ccc2c(c1)[C@H](C)[C@@H](c1ccc(OC)c(OC)c1)O2,,,RT activity / radiometric,200 µg/mL,28.5%
Cc1coc(N2C(=O)CSC2c2c(Cl)ncnc2Cl)n1,,,RT activity / ELISA / absorbance,100 µg/mL,65.81%
O=C1c2c(O)cc(O)cc2O[C@H](c2ccc(O)cc2)[C@H]1c1c(O)cc(O)c2c(=O)cc(-c3ccc(O)c(O)c3)oc12,,,RT activity / radiometric,200 µg/mL,82.12%
COc1nc(C)nc(N2C(=O)CSC2c2c(Cl)ncnc2Cl)n1,,,RT activity / ELISA / absorbance,100 µg/mL,60.93%
Oc1cc(O)c2c(c1)O[C@H](c1ccc(O)c(O)c1)[C@H](O)C2,LAV,,,0.1 µg/mL,0%
Clc1ccccc1-c1nc2cccc(Br)n2c1NC1CCCCC1,,,ELISA,50 µM,93.9%
COc1cc2c(cc1OC)-c1c3c(cc4ccnc(c14)C2=O)OCO3,,,RT activity / radiometric,200 µg/mL,25.5%
O=C1CSC(c2c(Cl)ncnc2Cl)N1c1ncccn1,,,RT activity / ELISA / absorbance,10 µg/mL,29.78%
CCN1c2ncccc2C=Cc2cccnc21,,RT-P236,nucleotide incorporation,1 µM,98%
C/C(=C\C=C\C(C)[C@H]1CC[C@@]2(C)[C@@H]3CC[C@H]4C(C)(C)C(=O)CC[C@]4(C)C3=CC[C@]12C)C(=O)O,,,RT activity / radiometric,200 µg/mL,-46.6%
COC(=O)/C(C)=C/C=C/[C@@H](C)[C@H]1CC[C@@]2(C)C3CC[C@H]4C(C)(C)C(=O)CC[C@]4(C)[C@@]3(O)CC[C@]12C,,,RT activity / radiometric,200 µg/mL,48.5%
COc1cc2c(cc1OC)C1Cc3ccc(OC)c(O)c3CN1CC2,,,RT activity / radiometric,200 µg/mL,31.6%

An empty or dashed field is not shown. Percent inhibition refers to the dose given; in toxicity tests it is the harm to the cells.